PMC7942396, “Drug Repurposing Screen for Compounds Inhibiting the Cytopathic Effect of SARS-CoV-2” (Frontiers in Pharmacology, 2021)
Counter-ions that a name gives are not always drawn.

Assays:
in vitro = settings: African green monkey
Vero E6 cells = settings: read-out: Cytotox CC50; cytotoxicity counter-assay, Vero E6 cells without virus

Q: With `Oc1ccc(-c2nc(-c3ccncc3)c(-c3ccc(F)cc3)[nH]2)cc1` [SB-202190] as the compound, how does the CC50 at 72 h (in vitro) read?
A: 14.1 µM

Q: With `O=C1NC(=O)/C(=C/c2cccc(C(F)(F)F)c2)S1` [SMI-4a] as the compound, how does the CC50 (Vero E6 cells) read?
A: 14.1 µM

Q: For `Clc1ccc2c(c1)C(N1CCNCC1)=Nc1ccccc1O2` [Amoxapine], which CC50 (in vitro) is on record?
A: 14.1 µM

Q: With `CN(C)CCC=C1c2ccccc2C=Cc2ccccc21` [Cyclobenzaprine hydrochloride] as the compound, how does the CC50 (in vitro) read?
A: 14.1 µM

Q: Which CC50 (Vero E6 cells) does the source give for `CCc1cc(-c2n[nH]c(C)c2-c2ccc3c(c2)OCCO3)c(O)cc1O` [CCT-018159] here?
A: 14.1 µM

Q: For `O=C1Nc2ccc(Cl)cc2[C@@](C#CC2CC2)(C(F)(F)F)O1` [Efavirenz], which CC50 (in vitro) is on record?
A: 14.1 µM

Q: For `CN(C)CCCN1c2ccccc2CCc2ccc(Cl)cc21` [Clomipramine hydrochloride], which CC50 (in vitro) is on record?
A: 14.1 µM

Q: Which CC50 at 72 h (in vitro) does the source give for `COc1ccc2c(c1)[C@]1(C[C@H]1c1ccc3c(/C=C/c4ccc(CN5C[C@@H](C)O[C@@H](C)C5)cc4)n[nH]c3c1)C(=O)N2` [CFI-400945] here?
A: 14.1 µM

Q: With `CC(/C=C/[C@@H]1C[C@]1(C)c1ccc2c(c1)C(C)(C)CCC2(C)C)=C\C(=O)O` [AGN-194204] as the compound, how does the CC50 at 72 h (in vitro) read?
A: 14.1 µM

Q: Which CC50 (Vero E6 cells) does the source give for `Cn1ncc2cc(-c3cnc(N)c(Cl)c3N3CCC4(CCNC4=O)CC3)ccc21` [CCT-251921] here?
A: 14.1 µM
